Assay results reported in patent US6841566B2, “Viral polymerase inhibitors” (Boehringer Ingelheim, Ltd., priority 2001, dated 2005).
The match of structure and compound is tentative.

Sequences of proteins named here, by UniProt entry; tags and fusion partners are left off. A line that says so, or that is headed by a name, gives the form on record, which may keep a tag or linker. Residues count along the entry.
UniProt P26663, 2420-3010 with tags or gaps with the stated changes: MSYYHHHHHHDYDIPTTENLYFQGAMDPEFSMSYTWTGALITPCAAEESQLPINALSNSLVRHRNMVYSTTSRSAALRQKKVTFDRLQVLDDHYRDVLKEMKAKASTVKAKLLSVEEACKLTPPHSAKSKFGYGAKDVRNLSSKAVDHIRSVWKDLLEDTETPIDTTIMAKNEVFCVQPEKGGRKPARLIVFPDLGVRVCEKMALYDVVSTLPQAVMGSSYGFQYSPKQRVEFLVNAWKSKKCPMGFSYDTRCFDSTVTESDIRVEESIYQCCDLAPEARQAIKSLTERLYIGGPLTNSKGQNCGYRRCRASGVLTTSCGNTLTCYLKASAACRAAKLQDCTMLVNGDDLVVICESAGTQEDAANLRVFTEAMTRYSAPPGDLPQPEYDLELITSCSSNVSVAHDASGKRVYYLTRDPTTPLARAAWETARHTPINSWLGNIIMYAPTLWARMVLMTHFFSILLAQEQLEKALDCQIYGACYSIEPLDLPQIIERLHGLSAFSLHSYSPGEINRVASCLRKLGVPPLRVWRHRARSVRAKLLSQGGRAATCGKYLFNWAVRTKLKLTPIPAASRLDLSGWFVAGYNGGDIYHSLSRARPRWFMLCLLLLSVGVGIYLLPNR

Key:
[1] = test system: Huh7 cells that stably maintain a subgenomic HCV replicon (S22.3 cell-line); assay: Cell based HCV RNA replication assay (S22.3 replicon cells, real-time RT-PCR); conditions: 72 hours
Procedure: Huh7 cells that stably maintain a subgenomic HCV replicon were established as previously described (Lohman et al., 1999. Science 285: 110-113) and designated as the S22.3 cell-line. S22.3 cells were maintained in Dulbecco's Modified […] Medium (DMEM) supplemented with 10% FBS and 0.5 mg/mL neomycin (Standard Medium). During the assay, DMEM medium supplemented with 10% FBS, containing 0.5% DMSO and lacking neomycin was used (Assay Medium). 16 hours prior to compound addition, S22.3 cells are trypsinized and diluted to 100 000 cells/ml in Standard Medium. 100μL (10 000 cells) are distributed into each well of a 96-well plate. The plate was then incubated at 37° C. with 5% CO2 until the next day.
10 μL of test compound (in 100% DMSO) was added to 2 ml of Assay Medium for a final DMSO concentration of 0.5% and the solution was sonicated for 15 min and filtered through a […] Millipore Filter Unit. 900 μl was transferred into row A of a Polypropylene Deep-Well Titer Plate. Rows B to H, contain 400 μL aliquots of Assay Medium (containing 0.5% DMSO), and were used to prepare serial dilutions (1/2) by transferring 400 μl from row to row (no compound was included in row H).
Cell culture medium was aspirated from the 96-well plate containing the S22.3 cells. […]
RNA was quantified on the STORM® system (Molecular Dynamics®) using the RiboGreen® RNA Quantification Kit (Molecular Probes®). […]

[2] = molecular target: hepatitis C virus RNA dependant polymerase (NS5B) (Hepatitis C virus genotype 1b, UniProt P26663); conditions: HCV NS5B polymerase assay of Example 22

Structure (SMILES) | EC50 [1] [µM] | IC50 [2] [µM]
CC1CCCC(C)C1n1c(-c2ccoc2)nc2cc(C(=O)NC3(C(=O)Nc4ccc(/C=C/C(=O)O)cc4)CCCC3)ccc21 (stereo not shown) | < 5 | 0.5 to 5
Cn1c(C(=O)O)cc2cc(NC(=O)C3(NC(=O)c4ccc5c(c4)nc(-c4ccoc4)n5C4CCCCC4)CCCNC3)ccc21 (single isomer, unassigned) | < 5 | < 0.5
